Pooled drug test results. Numbers come from NIAID ChemDB, via PubChem.

All rows: host cell toxicity; cell line: Jurkat cells; endpoint: CC50

Two numbers with a dash give a range or band. An empty or dashed field is not shown. Lines come from different laboratories, so protocols vary. CCn is the concentration with n% toxicity to the cells.

SMILES	method	result
COc1cc(OC)c2c(=O)cc(-c3ccc(OCCCN4CCN(C)CC4)c(NC(=O)CCCN(C)C)c3)n(C)c2c1	MTT	>100 µM
COc1c(/C=C/C(=O)c2ccc(Br)cc2)ccc2ccccc12	MTT	3–15 µM
COC(=O)CCOc1cc2c(cc1OC)C(=O)N1CCC[C@H]1C=N2		0.06 µM
CC[C@@H]1/C=C(\C)C[C@H](C)C[C@H](OC)[C@H]2O[C@@](O)(C(=O)C(=O)N3CCCC[C@H]3C(=O)O[C@H](/C(C)=C/[C@H]3CC[C@H](O)[C@H](OC)C3)[C@H](C)[C@@H](O)CC1=O)[C@H](C)C[C@@H]2OC		50 µg/mL
COC(=O)C1=C2Nc3ccccc3[C@@]23CCN2C[C@]4(C[C@@H]5C[C@]67CC(=O)O[C@H]6CCC6NC[C@@]8(c9cccc(OC)c9N(C4)[C@@]58O)[C@@H]67)[C@@H]4OCC[C@]4(C1)[C@H]23	absorbance	11 µM
C/C(=N\NC(=O)c1ccccc1)c1cccc(/C(C)=N/NC(=O)c2ccccc2)n1	MTT	>100 µM
COc1cc(OC)c2c(=O)cc(-c3ccc(OCCCN4CCN(C)CC4)c(N)c3)n(C)c2c1	MTT	>100 µM
COc1cc2c(cc1OCCC(=O)Nc1cc(C(=O)Nc3cc(C(=O)Nc4cc(C(=O)NCCC(=N)N)n(C)c4)n(C)c3)n(C)c1)N=C[C@@H]1CCCN1C2=O		62 µM
Cn1cc(C(=O)O)c(=O)c2cc(N)c(N3CCN(c4ccccn4)CC3)cc21	MTT	56.24 µM
O=C(O)CS(=O)c1ccc2c3c(cccc13)C(=O)c1ccccc1-2	fluorescence	>10 µM
COc1ccc(C(=O)/C=C/c2ccc3ccccc3c2OC)cc1	MTT	3–15 µM
COc1ccc2c(Cc3c4ccccc4cc4ccccc34)cncc2c1O	fluorescence	>10 µM
COc1cc(OC)c2c(=O)cc(-c3ccc(OCCCN4CCCCC4)c(NC(=O)CCCN(C)C)c3)n(C)c2c1	MTT	>100 µM
COc1c(/C=C/C(=O)c2ccc(F)cc2)ccc2ccccc12	MTT	3–15 µM
COc1cc2c(cc1OCCC(=O)Nc1cc(C(=O)Nc3cc(C(=O)Nc4cc(C(=O)Nc5cc(C(=O)NCCC(=N)N)n(C)c5)n(C)c4)n(C)c3)n(C)c1)N=C[C@@H]1CCCN1C2=O		0.75 µM
COc1cc(OC)c2c(=O)cc(-c3ccc(OCCCN4CCCCC4)c(N)c3)n(C)c2c1	MTT	>100 µM

Repeating the final 2 entries:

{"SMILES": "COc1cc2c(cc1OCCC(=O)Nc1cc(C(=O)Nc3cc(C(=O)Nc4cc(C(=O)Nc5cc(C(=O)NCCC(=N)N)n(C)c5)n(C)c4)n(C)c3)n(C)c1)N=C[C@@H]1CCCN1C2=O", "result": "0.75 µM"}
{"SMILES": "COc1cc(OC)c2c(=O)cc(-c3ccc(OCCCN4CCCCC4)c(N)c3)n(C)c2c1", "method": "MTT", "result": ">100 µM"}